Consider 3 substances from article PMC6146907 (Chemnanomat, 2018).

Strings that start with PEPTIDE1 are HELM notation: dots part the residues, brackets hold end groups and non-standard residues.

This data set in a line: general procedure: Fmoc solid-phase peptide synthesis; H-L-Cys(Trt)-2-chlorotrityl resin (0.49 mmol/g); HBTU, DIPEA. Conditions: whole synthesis, 210 nm.
As for Ac-CEECEG L AEEEC-OH, the “purity (crude or final not stated)” value came to 91%. The figure for “PEPTIDE1{[ac].C.E.E.G.L.A.E.E.C}$$$$V2.0” is 92%.

“PEPTIDE1{[ac].C.E.E.E.G.L.A.E.E.E.C}$$$$V2.0”: the “purity (crude or final not stated)” value is given as 90%.
